The source of these data is patent publication US6426231B1 (priority 1998, dated 2002).

“And” between values parts separate entries of the source, which are not always exact repeats. Equal entries are not always repeated. Where two headings read alike, the source gives them in different places.

In one assay the target is αHL-E111N/K147N (Staphylococcus aureus, UniProt P09616, E137N/G156S/I168L/K173N/K34A/N165Q/V150L). The note with it: −40 mV, 1M NaCl, 10 mM Na phosphate, pH 7.5.
A further assay has as its target αHL-M113N (Staphylococcus aureus, UniProt P09616, G156S/I168L/K34A/M139N/N165Q/V150L). The following applies: for g (conductance): −40 mV, 1M NaCl, 10 mM Na phosphate.
A further assay addresses αHL-CH1 (Staphylococcus aureus, UniProt P09616, DEL150-163/F146V/G145E/INS166HASFFDIGGSVSAG/N147H/N165E). The following applies: −40 mV, 1M KCl, 10 mM K phosphate, pH 7.4.
[1] abbreviates: pH 7.5, KCl in mM [cis/trans] [200/1000].
Where [2] appears, read: range over both KCl gradient directions, pH 7.5.

Turning to β-cyclodextrin, the “g (conductance)” value on αHL-E111N/K147N is 207 ± 7 pS; on αHL-M113N (pH 7.5), 261 ± 4 pS; on αHL-CH1 it was 109 pS and 109 ± 9 pS. Besides, at αHL-M113N (homoheptameric αHL-M113N vs WT), the “binding of β-cyclodextrin, times more tightly than WT homoheptamers” value is listed as 10^4 times. For the same substance, the PK+/PCl− was 0.079 ± 0.005 ^c at αHL-M113N (setting [1]) and 0.046-0.079 on αHL-M113N (setting [2]).
Regarding heptakis-6-sulfato-β-cyclodextrin, the PK+/PCl− is 4.1 ± 0.2 ^c on αHL-M113N (setting [1]); 6.1 ± 0.14 ^d on αHL-M113N (pH 7.5, KCl in mM [cis/trans] [1000/200]); 4.1-6.1 at αHL-M113N (setting [2]).
γ-cyclodextrin: the “g (conductance)” value at αHL-E111N/K147N was 275 ± 4 pS; on αHL-M113N (pH 7.5), 287 ± 5 pS.
